Values from PubChem BioAssay AID504761 (Drosophila RNAi Screening Center, 2011).
In all, the deposit lists about 22,000 reagents; below is an unselected part of those that have a named target and a result. In the full data, 116 (0.52%) are marked active. 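Calls depend on retest data that are not deposited; infection was ranked per plate without normalising between plates; the unit of the infection score is not given.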 Raw values vary from plate to plate and are shown uncorrected. Names joined by + are all predicted targets of the reagent. The record does not give: the amount of reagent, the time to read-out.

Assay: 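Genome-wide fly cell screen for genes dengue virus requires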 (primary screen)
Cells: D.Mel-2 cells from Drosophila
Reagent: long dsRNA against Drosophila genes
Conditions: infection with dengue virus type 2; dose and infection time not stated
Measured: 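Cells stained for dengue envelope protein and imaged; percent of infected cells per well on duplicate plates, ranked by infection, with stained nuclei counted for cell number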
Direction: infection score: higher = more virus-infected cells; cell count: higher = more cells in the well
Call rule: 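Low infection ranks in the two replicates (chance level up to 0.065) followed by a retest with a 1.5-fold or larger significant decrease, p below 0.05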
Calls: active = confirmed: knock-down lowers infection; inactive = not picked or not confirmed

Gene	DRSC id	infection score, replicate 1	infection score, replicate 2	cell count, replicate 1	cell count, replicate 2	call
CG9107	DRSC03138	6	23.7	5888	5355	inactive
CG11726	DRSC09858	3.67	0.39	5644	6175	inactive
flfl	DRSC16474	6.8	6.45	5104	5146	inactive
gol	DRSC04689	15.4	31.6	6166	5333	inactive
TrissinR	DRSC02334	2.12	3.41	6503	5799	inactive
TrissinR	DRSC02335	1.58	3.09	6348	6435	inactive
TrissinR	DRSC02336	1.06	0.73	6343	6286	inactive
TrissinR	DRSC25084	1.7	3.24	6586	5953	inactive
TrissinR	DRSC26283	10.8	7.35	5655	6379	inactive
rk	DRSC03602	2.88	0.63	902	960	inactive
tbrd-1	DRSC14601	1.05	4	6121	5500	inactive
Trp1	DRSC03465	4.7	13.8	5979	5771	inactive
Trp1	DRSC24685	1.04	3.53	6859	6340	inactive
PIG-H + Kmn2	DRSC12653	2.8	3.37	4646	2046	inactive

Reformatted: results already given.
Gene | DRSC id | infection score, replicate 1 | infection score, replicate 2 | cell count, replicate 1 | cell count, replicate 2 | call
TrissinR | DRSC02334 | 2.12 | 3.41 | 6503 | 5799 | inactive
TrissinR | DRSC02335 | 1.58 | 3.09 | 6348 | 6435 | inactive
TrissinR | DRSC02336 | 1.06 | 0.73 | 6343 | 6286 | inactive

The listing continues:
Gene	DRSC id	infection score, replicate 1	infection score, replicate 2	cell count, replicate 1	cell count, replicate 2	call
CG18563	DRSC02676	4.95	2.15	5917	6640	inactive
CG13614	DRSC14617	1.74	5.09	6678	5968	inactive
wrm1	DRSC11007	6.85	5.98	5768	6035	inactive
wrm1	DRSC24006	4.78	8.99	6297	4741	inactive
CCKLR-17D1	DRSC20011	3.38	2.26	5266	5755	inactive
CCKLR-17D1	DRSC20012	11.3	0.16	4992	5550	inactive
CCKLR-17D1	DRSC28081	4.1	41.2	6586	5355	inactive
CG14186	DRSC10185	8.18	3.27	6074	6945	inactive
CG14186	DRSC28085	28.1	3.33	5119	6274	inactive
